Human monoclonal antibodies against the spike receptor-binding domain (heavy:light variable regions). IC50 against pseudoviruses bearing the spike of naturally observed variants; lower = stronger; >10 µg/ml means not reached at the top dose. No active / inactive call. The stated detection limit is 0.0005 µg/ml; values near or below 0.001 µg/ml lie at the floor of the assay.
B1: BD55-6112 (protein)
chain 1: EVQLVESGGGLVKPGGSLRLSCAASGFIFSDYDMNWVRQAPGKGLEWLSSISGSTYFIHYTDSVRGRFTISRDNAKNSVYLQMSSLRVEDTAVYHCVRGGGPPYSDTHGFVDYWGQGTLVTVSS
chain 2: QSVLTQPPSASGTPGQRVTISCSGSNSNIGSNIVSWFQHLPGTAPKLLIYDNNRRPSGVPDRISGSKSGTSASLAISGLQSEDEADYYCATWDDSLNGGVFGGGTKLTVL
B2: BD55-6087 (protein)
chain 1: EVQLVESGGGLIQPGGSLRLSCAASDFTVGSNDMSWVRQAPGKGLECVSVIQGGDGTHYADSVKGRFTISRDTSKNTLYLQMNNLRDEDSAMYYCASLVAGTFDYWGQGTLVTVSS
chain 2: DIQMTQSPSSLSASVGDRVTITCRASQGISNSLAWYQQRPGKAPKILLYATSRLESGVPSRFSGSGSGTDYTLTISSLQPEDFATYHCQQYHGIPYTFGQGTKLEIK
B3: BD55-6088 (protein)
chain 1: QVPLVQSGAVVKKPGSSVKVSCKASGDTDTFISYAFSWVRQAPGQGLEWMGRVLPIHSLTNYAQKFQDRVTISADKSTTTVYMELKSLTSDDTAVYYCARRGPARGYSGYDEFDYGLDVWGQGTTVTVSS
chain 2: DIQMTQSPSSLSASVGDRVTITCQASQDVKKYLNWYEQKPGKAPKLLIYDASKLETGVTSRFSGTGSGTVFTFTISSLQPEDIATYFCQQYDSLPLTFGQGTRLDIK
B4: BD55-6105 (protein)
chain 1: QVQLVQSGAEVKKPGSSVKVSCKASGGTFSSNGVNWVRQAPGQGLEWMGRIIPIPGIGDFAQKFQGRVTITADKSTSTVYMELSSLRSEDTAVYYCARAPPRGYSGYDLLGNDAFDIWGQGTMVTVSS
chain 2: QSVLTQPPSVSGAPGQRVTISCTGSSSNIGAGYDVHWYQQLPGTAPKLLIYTNSNRPSGVPDRFSGSKSGTSASLAIAGLQSEDEADYYCQSYDSSLSGSYVFGTGTKVTVL
B5: BD55-6083 (protein)
chain 1: QVQLVQSGAEVKKPGASVKVSCKASGYTFTRNAIHWVRQAPGQRLEWMGWINADNGNTEYSQKFQGRVTITRDTSASTAYMELSSLRSEDTAVYYCARDAGRVYYGSGSYYMEYKEYYFDYWGQGTLVTVSS
chain 2: DIQMTQSPSTLSASVGDGVTITCRASQSITPWLAWYQQKPGKAPKLLIYKASSLESGVPSRFSGSGSGTEFTLTISSLQPDDFATYYCQQYNSSPYTFGQGTKLEIK
B6: BD55-6095 (protein)
chain 1: QVHLVQSGAEVKKPGASMKVSCKASGYTFTSYAMHWVRQAPGQRLEWMGWINADTDKTEYSQKFQGRVTITRDTSANTVYMELSSLRSEDTAVYYCATFRDGYNWGPFDYWGQGTLVTVSS
chain 2: DIQMTQSPSTLSASVGDRVTITCRASQNIDSWLAWYQQKPGKAPKLLIYQASTLESGVPSRFSGSGSGTEFTLTISSLQPDDFATYNCQQYKSSPYTFGQGTKLEIK

Each binder was assayed against SARS-CoV-2 Omicron BA.1 spike pseudovirus (assay: pseudovirus neutralization IC50; higher = weaker neutralization).
Protocol: (§1)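 Single-round VSV luciferase pseudovirus mixed with antibody dilutions for 1 h and put on Huh-7 cells for about a day; IC50 from the dose curve.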

Row | Binder | pseudovirus neutralization IC50 [µg/mL]
1 | B1 | 0.601
2 | B2 | > 10
3 | B3 | > 10
4 | B4 | > 10
5 | B5 | > 10
6 | B6 | > 10

The binders below were run against SARS-CoV-2 Omicron BA.2 spike pseudovirus in the same assay as above.
Protocol: as §1

Row | Binder | pseudovirus neutralization IC50 [µg/mL]
7 | B1 | > 10
8 | B2 | > 10
9 | B3 | > 10
10 | B4 | > 10
11 | B5 | > 10
12 | B6 | > 10

Each binder was assayed against SARS-CoV-2 Omicron BA.2.75 spike pseudovirus in the same assay as above.
Protocol: as §1

Row | Binder | pseudovirus neutralization IC50 [µg/mL]
13 | B1 | > 10
14 | B2 | > 10
15 | B3 | > 10
16 | B4 | > 10
17 | B5 | > 10
18 | B6 | > 10

The binders below were run against SARS-CoV-2 Omicron BA.5 spike pseudovirus in the same assay as above.
Protocol: as §1

Row | Binder | pseudovirus neutralization IC50 [µg/mL]
19 | B1 | > 10
20 | B2 | > 10
21 | B3 | > 10
22 | B4 | > 10
23 | B5 | > 10
24 | B6 | > 10

What follows are binders tested against SARS-CoV-2 Omicron BQ.1.1 spike pseudovirus in the same assay as above.
Protocol: as §1

Row | Binder | pseudovirus neutralization IC50 [µg/mL]
25 | B1 | > 10
26 | B2 | > 10
27 | B3 | > 10
28 | B4 | > 10
29 | B5 | > 10
30 | B6 | > 10

Each binder was assayed against SARS-CoV-2 Omicron XBB spike pseudovirus in the same assay as above.
Protocol: as §1

Row | Binder | pseudovirus neutralization IC50 [µg/mL]
31 | B1 | > 10
32 | B2 | > 10
33 | B3 | > 10
34 | B4 | > 10
35 | B5 | > 10
36 | B6 | > 10

These binders were tested against SARS-CoV-2 early D614G spike pseudovirus in the same assay as above.
Protocol: as §1

Row | Binder | pseudovirus neutralization IC50 [µg/mL]
37 | B1 | 1.86
38 | B2 | 0.44
39 | B3 | 0.0784
40 | B4 | 0.116
41 | B5 | > 10
42 | B6 | 1.53

Source: the supplement of paper PMC9931576
